Measured values from several laboratories, pooled; numbers as filed in NIAID ChemDB.

Common to all: tests in culture; agent: HIV-1; read by: p24 / ELISA; measure: inhibition

Two numbers with a dash give a range or band.

compound | tested at | strain or isolate | cells | result
O=C(Cn1c(=O)oc2ccccc21)NNC(=O)c1ccc(Cl)cc1 | 100 µM | NL4-3 | HeLa | 29%
O=C(O)c1c[nH]c2c(-c3ccccc3)cccc2c1=O | 100 µM | NL4-3 | HeLa | 55%
COC(=O)CCCCCCCCCCNC(=O)[C@]12CCC(C)(C)C[C@H]1C1=CC[C@@H]3[C@@]4(C)C[C@@H](O)[C@H](O)C(C)(C)[C@@H]4CC[C@@]3(C)[C@]1(C)CC2 | 25 µM | pNL4-3 | MT-2 | 64.4%
CCOC(=O)c1c(C)c(C(=O)OCC)n(C)c1C | 10 µM | IIIB | PBL | 0%
O=c1oc2ccccc2n1Cc1nnc(Nc2ccccc2)s1 | 100 µM | NL4-3 | HeLa | 84%
CCOC(=O)C1=C(C)N(c2ccc(C(=O)O)cc2)C(C)=C(C(=O)OCC)C1c1cccs1 | 100 µM | NL4-3 | HEK293T + MT-2 | 50.12%
CC#C[C@]1(O)CC[C@H]2[C@@H]3CCC4=CC(=O)CCC4=C3[C@@H](c3ccc(N(C)C)cc3)C[C@@]21C | 1 µM | 89.6 | PBMC | 60–70%
CC1=C(C(=O)O)C(c2ccc(N(C)C)cc2)NC(=O)N1 | 100 µM |  | HEK293T | 35.1%
CCn1c(C)c(C(=O)O)c(C(=O)O)c1Cc1ccccc1 | 10 µM | IIIB | PBL | 5%
O=C(Cn1c(=O)oc2ccccc21)NNC(=S)c1ccccc1 | 100 µM | NL4-3 | HeLa | 16%
COC(=O)C1=C(C)N(c2ccc(C(=O)O)cc2)C(C)=C(C(=O)OC)C1c1ccc(N(C)C)cc1 | 100 µM | NL4-3 | HEK293T + MT-2 | 47.5%
COc1ccnc2[nH]cc(C(=O)C(=O)N3CCN(C(=O)c4ccccc4)C[C@H]3C)c12 | 100 µM |  | HEK293T | 100%
FC(F)(F)Oc1ccc(Nc2ccc3cccc(Cl)c3n2)cc1 | 5 µM | AD8 | PBMC | 71%
CC(C)CN(C[C@@H](O)[C@H](Cc1ccccc1)NC(=O)O[C@H]1CO[C@H]2OCC[C@H]21)S(=O)(=O)c1ccc2nc(NC3CCN(C4CCCC4)CC3)sc2c1 | 0.007 µM | LAI | PBMC | 90%
CC1=C(C(=O)O)C(c2cccs2)NC(=O)N1 | 100 µM |  | HEK293T | 28.8%
CCOc1ccc(Cl)cc1-c1oc2ccccc2c(=O)c1O | 10 µM | BaL | PM1 | 0%
Cc1cccc(CSc2nnc(-c3c[nH]c4c(-c5ccccc5)cccc4c3=O)o2)c1 | 100 µM | NL4-3 | HeLa | 21%
Cc1[nH]c2ccccc2c(=O)c1C(=O)O | 100 µM | NL4-3 | HeLa | 26%
O=c1c(-c2nnc(SCc3ccc(F)cc3)o2)c[nH]c2c(-c3ccccc3)cccc12 | 100 µM | NL4-3 | HeLa | 52%
O=C(Cn1c(=O)oc2ccccc21)NNC(=O)c1ccc(F)cc1 | 100 µM | NL4-3 | HeLa | 7%
CNC(=O)c1cn2c(c1O)C(=O)N(Cc1ccc(Cl)c(Cl)c1)CC2 | 1.25 µM | IIIB | MT-4 | >95%
C[C@H](NC(=O)[C@]12CCC(C)(C)C[C@H]1C1=CC[C@@H]3[C@@]4(C)C[C@@H](O)[C@H](O)C(C)(C)[C@@H]4CC[C@@]3(C)[C@]1(C)CC2)C(=O)NCC(=O)O | 10 µM | pNL4-3 | MT-2 | -34.5%
Cc1c2ccnc(Cl)c2cc2c3cn(C)ccc-3nc12 | 0.5 µM |  | PBMC | 0%
CC1(C)CC[C@]2(C(=O)NCCCCCCCCCCC(=O)NCC(=O)O)CC[C@]3(C)C(=CC[C@@H]4[C@@]5(C)C[C@@H](O)[C@H](O)C(C)(C)[C@@H]5CC[C@]43C)[C@@H]2C1 | 10 µM | pNL4-3 | MT-2 | 14.4%
CCCCC/C=C/C=C1/C(=O)C=CC1C/C=C\CCCC(=O)O | 3.1 µM |  | U-937 | 85%
CC1=C(C(=O)O)C(c2ccc(C)cc2)NC(=O)N1 | 100 µM |  | HEK293T | 42.6%
COC(=O)C1=C(C)N(c2ccc(C(=O)O)cc2)C(C)=C(C(=O)OC)C1c1ccco1 | 100 µM | NL4-3 | HEK293T + MT-2 | 84%
C[C@H](NC(=O)CCCCCNC(=O)[C@]12CCC(C)(C)C[C@H]1C1=CC[C@@H]3[C@@]4(C)C[C@@H](O)[C@H](O)C(C)(C)[C@@H]4CC[C@@]3(C)[C@]1(C)CC2)C(=O)O | 25 µM | pNL4-3 | MT-2 | 29.8%
O=c1c(-c2nnc(SCc3cccc(Cl)c3)o2)c[nH]c2c(-c3ccccc3)cccc12 | 100 µM | NL4-3 | HeLa | 13%
CCOC(=O)c1cc2n(c1-c1ccc(F)cc1)CCC2 | 10 µM | IIIB | PBL | 86%
O=C1c2c(O)c(O)cc(=O)n2CCN1Cc1ccc(F)cc1 | 0.31 µM |  | MT-4 | ≥95%
CC1=C(C(=O)O)C(c2ccccc2O)NC(=O)N1 | 100 µM |  | HEK293T | 36.2%
Cc1ccc(C(=O)NNC(=O)Cn2c(=O)oc3ccccc32)cc1 | 100 µM | NL4-3 | HeLa | 10%
O=C(O)c1c[nH]c2c3c(ccc2c1=O)CCCC3 | 100 µM | NL4-3 | HeLa | 84%
Cc1cccc(C(=O)NNC(=O)Cn2c(=O)oc3ccccc32)c1 | 100 µM | NL4-3 | HeLa | 9%
COC(=O)c1c(C)[nH]c(Cc2ccccc2)c1C(=O)OC | 10 µM | IIIB | PBL | 0%
CC1=C(C(=O)O)C(c2ccccc2)NC(=O)N1 | 100 µM |  | HEK293T | 1.84%
Cc1ccc(CSc2nnc(-c3c[nH]c4c(-c5ccccc5)cccc4c3=O)o2)cc1 | 100 µM | NL4-3 | HeLa | 49%
COc1cc(N=Nc2cc(S(=O)(=O)O)cc3cc(S(=O)(=O)O)cc(O)c23)c(C)cc1NC(=O)Nc1cc(C)c(N=Nc2cc(S(=O)(=O)O)cc3cc(S(=O)(=O)O)cc(O)c23)cc1OC | 50 µM | LAV-BR | PBL | 86%
O=C1c2c(O)c3n(c2CCN1Cc1ccc(F)cc1)CCN(Cc1ccc(F)cc1)C3=O | 0.07 µM | IIIB | MT-4 | >95%
O=C(O)c1c[nH]c2ccccc2c1=O | 100 µM | NL4-3 | HeLa | <10%
CCCCn1c(C)c(C(=O)OC)c(C(=O)OC)c1-c1ccccc1 | 1 µM | IIIB | PBL | 0%
Cc1cccc2c(=O)c(C(=O)O)c[nH]c12 | 100 µM | NL4-3 | HeLa | 17%
CC(C)[C@H](NC(=O)CCCCCNC(=O)[C@]12CCC(C)(C)C[C@H]1C1=CC[C@@H]3[C@@]4(C)C[C@@H](O)[C@H](O)C(C)(C)[C@@H]4CC[C@@]3(C)[C@]1(C)CC2)C(=O)O | 25 µM | pNL4-3 | MT-2 | 3.5%
O=c1c(-c2nnc(SCc3ccc(Cl)cc3)o2)c[nH]c2c(-c3ccccc3)cccc12 | 100 µM | NL4-3 | HeLa | 33%
CCn1c(C)c(C(=O)OC)c(C(=O)OC)c1Cc1ccccc1 | 10 µM | IIIB | PBL | 100%
C[C@H](Cn1cnc2c(N)ncnc21)OCP(=O)(O)O | 1.09 µg/mL | IIIB | C8166 | 90%
CC1=C(C(=O)O)C(c2ccc(Cl)cc2)NC(=O)N1 | 100 µM |  | HEK293T | 49.5%
CNC(=O)c1cn2c(c1O)C(=O)N(Cc1ccc(Cl)cc1)CC2 | 2.5 µM | IIIB | MT-4 | >95%

Lines come from different laboratories, so protocols vary. Percent inhibition refers to the dose given; in toxicity tests it is the harm to the cells. An empty or dashed field is not shown.